Compound potency records, mixed from different reports. Data source: NIAID ChemDB in PubChem.

Shared fields: tests on isolated targets; organism: Hepatitis C virus

Two numbers with a dash give a range or band. An empty or dashed field is not shown. ICn is the concentration giving n% inhibition. Inhibition is in % at the dose shown (toxicity tests: loss of growth or viability). Neighbouring rows are from separate reports.

smiles | protein | read-out | tested at | result
O=C(O)c1cc2nc(-c3ccc(Oc4ccccc4)cc3)cc(-c3ccc(Cl)cc3)n2n1 | RNA-dependent RNA polymerase | IC50 |  | 1–10 µM
O=C(NCc1cccs1)Nc1cccc(-c2nc(C(=O)O)c(O)c(=O)[nH]2)c1 | HCV polymerase | IC50 |  | <100 µM
O=C(O)c1ccc2c(c1)nc(-c1ccc3nc(-c4ccccc4-c4ccc(Cl)c(Cl)c4)ccc3c1)n2C1CCCCC1 | NS5B polymerase | inhibition | 33 µM | 99.42%
CCc1cc2c(C(=O)NC)c(-c3ccc(F)cc3)oc2cc1N(CCO)S(C)(=O)=O | Nonstructural protein 5B | IC50 |  | ≤0.5 µM
NC(=O)CC(NC(=O)c1ccc2c(c1)nc(-c1ccc3nc(-c4ccccc4)cnc3c1)n2C1CCCCC1)C(=O)O | NS5B polymerase | inhibition | 100 µM | 97.84%
COc1nc(-c2sccc2NC(=O)OCc2ccccc2)nc(C(=O)O)c1O | HCV polymerase | IC50 |  | <50 µM
COc1ccc(-c2ccccc2C)c(-c2ccc3cc(-c4nc5cc(C(=O)O)ccc5n4C4CCCCC4)ccc3n2)c1 | NS5B polymerase | inhibition | 100 µM | 101%
O=C(O)c1cc2nc(-c3ccc(Cl)cc3)cc(-c3ccc(Cl)cc3)n2n1 | RNA-dependent RNA polymerase | IC50 |  | >10 µM
CCOc1ccc([N+](=O)[O-])cc1-c1ccc2cc(-c3nc4cc(C(=O)O)ccc4n3C3CCCCC3)ccc2n1 | NS5B polymerase | inhibition | 100 µM | 101%
CNC(=O)c1c(-c2ccc(F)cc2)oc2cc(N(C)S(C)(=O)=O)c(OCc3ccc(C(=O)O)c(O)c3)cc12 | Nonstructural protein 5B | IC50 |  | ≤0.5 µM
O=C(O)c1cc2nc(-c3cccc(Cl)c3)cc(-c3ccccc3)n2n1 | RNA-dependent RNA polymerase | IC50 |  | >10 µM
Cc1ccc(C(=O)Nc2ccsc2-c2nc(C(=O)O)c(O)c(=O)[nH]2)cc1F | HCV polymerase | IC50 |  | <25 µM
O=C(O)CCNC(=O)c1ccc2c(c1)nc(-c1ccc3ncc(-c4ccccc4)cc3c1)n2C1CCCCC1 | NS5B polymerase | inhibition | 33 µM | 49.12%
CC[C@H](NC(=O)[C@@H]1C[C@@H](OCc2ccccc2)CN1C(=O)[C@@H](NC(=O)[C@@H](NC(=O)c1cnccn1)C(C)C)C(C)C)C(=O)C(=O)CCc1ccccc1 | NS3 protease | Ki |  | 1–100 µM
O=C(O)c1cc2nc(-c3ccc(Cl)cc3Cl)cc(-c3ccc(Oc4ccccc4)cc3)n2n1 | RNA-dependent RNA polymerase | IC50 |  | >10 µM
CC[C@@H](C=O)NC(=O)[C@H](CC(C)C)NC(=O)[C@@H](NC(=O)[C@@H](NC(=O)c1csc(-c2ccncc2)n1)C(C)C)C(C)C | NS3 protease | Ki |  | 1–100 µM
CC(C)(C)OC(=O)N[C@@H](COC(=O)Nc1ccsc1-c1nc(C(=O)O)c(O)c(=O)[nH]1)c1ccccc1 | HCV polymerase | IC50 |  | <25 µM
O=C(O)c1ccc2nc(-c3ccc4nc(-c5ccccc5-c5ccc(Cl)cc5)ccc4c3)[nH]c2c1 | NS5B polymerase | inhibition | 33 µM | 67.33%
O=C(O)c1sc(-c2ccccc2)cc1NS(=O)(=O)c1ccccc1[N+](=O)[O-] | NS3 ATPase | IC50 |  | <5 µM
CC[C@@H](C=O)NC(=O)[C@@H]1C[C@@H](OC(=O)Nc2cccc3ccccc23)CN1C(=O)[C@@H](NC(=O)[C@@H](NC(=O)c1cnccn1)C(C)C)C(C)C | NS3 protease | Ki |  | 1–100 µM
O=C(O)c1sc(-c2ccccc2)cc1NS(=O)(=O)c1cccc([N+](=O)[O-])c1 | NS3 ATPase | IC50 |  | <5 µM
COc1ccc(-c2ccc(OC)cc2-c2ccc3cc(-c4nc5cc(C(=O)O)ccc5n4C4CCCCC4)ccc3n2)cc1 | NS5B polymerase | inhibition | 33 µM | 99.33%
O=C(O)c1cc2nc(-c3ccc(Cl)cc3)cc(-c3ccc(Cl)cc3Cl)n2n1 | RNA-dependent RNA polymerase | IC50 |  | >10 µM
CC(C)N(C(=O)c1ccc(C(F)(F)F)cc1)c1cc(-c2ccccc2)sc1C(=O)O | NS3 ATPase | IC50 |  | <5 µM
CC[C@@H](C=O)NC(=O)[C@@H]1C[C@@H](OCc2ccccc2)CN1C(=O)[C@@H](NS(=O)(=O)Cc1ccccc1)C(C)C | NS3 protease | Ki |  | >100 µM
CC(C)(C)OC(=O)NCc1ccccc1COC(=O)Nc1ccsc1-c1nc(C(=O)O)c(O)c(=O)[nH]1 | HCV polymerase | IC50 |  | <25 µM
CCc1cc2c(C(=O)NC)c(-c3ccc(F)cc3)oc2cc1NS(C)(=O)=O | Nonstructural protein 5B | IC50 |  | ≤0.5 µM
CC(C)(C)C(=O)OCOC(=O)c1cc2nc(-c3ccc(OCc4ccccc4)cc3)c(C3CCCCC3)c(=O)n2[nH]1 | RNA-dependent RNA polymerase | IC50 |  | >10 µM
CCNS(=O)(=O)c1cc2oc(-c3ccc(F)cc3)c(C(=O)NC)c2cc1OC(C)C | Nonstructural protein 5B | IC50 |  | ≤0.5 µM
O=C(Nc1cscc1-c1nc(C(=O)O)c(O)c(=O)[nH]1)OCCc1ccccc1 | HCV polymerase | IC50 |  | <25 µM
CC(C)N(C(=O)c1ccc(Cl)cc1Cl)c1cc(-c2ccc3[nH]ccc3c2)sc1C(=O)O | NS3 ATPase | IC50 |  | <5 µM
COc1ccc(-c2cccc(Cl)c2)c(-c2ccc3cc(-c4nc5cc(C(=O)O)ccc5n4C4CCCCC4)ccc3n2)c1 | NS5B polymerase | inhibition | 100 µM | 99.18%
O=C(O)c1sc(-c2ccccc2)cc1N(Cc1ccc(C(F)(F)F)cc1)C(=O)C1CCCCC1 | NS3 ATPase | IC50 |  | <5 µM
COc1ccc(COc2ccc(-c3cnc4c(-c5nn[nH]n5)cnn4c3C3CCCCC3)cc2)cc1C | RNA-dependent RNA polymerase | IC50 |  | 1–10 µM
O=C(NCc1cc(Cl)cc(Cl)c1)Nc1cscc1-c1nc(C(=O)O)c(O)c(=O)[nH]1 | HCV polymerase | IC50 |  | <25 µM